By UniProt entry, the sequences of proteins in these tests, tags left out. Chains listed by the source or under a name are the forms on record and can include a tag or linker. Residues count along the entry.
UniProt P27958, 1027-1657 limits assumed: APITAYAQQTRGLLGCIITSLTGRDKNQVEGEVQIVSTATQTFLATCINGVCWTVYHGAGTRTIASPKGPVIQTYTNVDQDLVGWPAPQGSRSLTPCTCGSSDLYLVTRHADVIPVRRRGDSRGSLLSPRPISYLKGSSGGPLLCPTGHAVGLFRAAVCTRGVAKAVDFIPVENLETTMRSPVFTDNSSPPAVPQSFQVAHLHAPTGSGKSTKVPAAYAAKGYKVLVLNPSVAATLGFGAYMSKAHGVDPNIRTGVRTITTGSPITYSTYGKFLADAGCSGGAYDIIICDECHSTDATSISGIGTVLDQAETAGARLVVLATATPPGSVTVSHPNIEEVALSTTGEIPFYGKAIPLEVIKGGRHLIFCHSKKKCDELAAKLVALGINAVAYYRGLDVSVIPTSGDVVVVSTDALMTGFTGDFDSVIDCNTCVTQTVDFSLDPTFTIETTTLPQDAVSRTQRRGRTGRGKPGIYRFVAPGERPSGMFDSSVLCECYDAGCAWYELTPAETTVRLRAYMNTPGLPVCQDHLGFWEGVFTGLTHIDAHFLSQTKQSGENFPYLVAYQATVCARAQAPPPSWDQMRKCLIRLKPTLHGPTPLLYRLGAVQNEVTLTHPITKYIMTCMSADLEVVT
UniProt P27958, 1658-1711 partner limits assumed: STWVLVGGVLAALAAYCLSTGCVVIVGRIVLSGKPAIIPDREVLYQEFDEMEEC
UniProt P26663, 1029-1207 with tags or gaps I1043K limits assumed: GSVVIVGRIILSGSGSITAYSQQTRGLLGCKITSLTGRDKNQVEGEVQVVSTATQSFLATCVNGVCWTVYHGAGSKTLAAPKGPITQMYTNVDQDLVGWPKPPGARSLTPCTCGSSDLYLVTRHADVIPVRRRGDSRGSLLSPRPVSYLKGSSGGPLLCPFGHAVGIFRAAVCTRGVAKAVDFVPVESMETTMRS

In patent US6846802B2, “Macrocyclic NS3-serine protease inhibitors of hepatitis C virus comprising N-cyclic P2 moieties” (priority 2000, dated 2005):

How the values were obtained:
[1] = target: Recombinant heterodimeric HCV NS3/NS4A protease (strain 1a) (Hepatitis C virus genotype 1a, UniProt P27958); experiment: HCV protease continuous (spectrophotometric) assay; conditions: pH 6.5
Method: Spectrophotometric assays for the HCV serine protease was performed on the inventive compounds by following the procedure described by R. Zhang et al, Analytical Biochemistry, 270 (1999) 268-275, the disclosure of which is incorporated herein by reference. The assay based on the proteolysis of chromogenic ester substrates is suitable for the continuous monitoring of HCV NS3 protease activity. The substrates were derived from the P side of the NS5A-NS5B junction sequence (Ac-DTEDVVX(Nva), where X=A or P) whose C-terminal carboxyl groups were esterified with one of four different chromophoric alcohols (3- or 4-nitrophenol, 7-hydroxy-4-methyl-coumarin, or 4-phenylazophenol). Presented below are the synthesis, characterization and application of these novel spectrophotometric ester substrates to high throughput screening and detailed kinetic evaluation of HCV NS3 protease inhibitors.
Recombinant heterodimeric HCV NS3/NS4A protease (strain 1a) was prepared by using the procedures published previously (D. L. Sali et al, Biochemistry, 37 (1998) 3392-3401). Protein concentrations were determined by the Biorad dye method using recombinant HCV protease standards previously quantified by amino acid analysis. Prior to assay initiation, the enzyme storage buffer (50 mM sodium phosphate pH 8.0, 300 mM NaCl, 10% glycerol, 0.05% lauryl maltoside and 10 mM DTT) was exchanged for the assay buffer (25 mM MOPS pH 6.5, 300 mM NaCl, 10% glycerol, 0.05% lauryl maltoside, 5 μM EDTA and 5 μM DTT) utilizing a Biorad Bio-Spin P-6 prepacked column.
HCV protease assays were performed at 30° C. using a 200 μl reaction mix in a 96-well microtiter plate. Assay buffer conditions (25 mM MOPS pH 6.5, 300 mM NaCl, 10% glycerol, 0.05% lauryl maltoside, 5 μM EDTA and 5 μM DTT) were optimized for the NS3/NS4A heterodimer (D. L. Sali et al, ibid.)). […] Fifty μls of prewarmed protease (12 nM, 30° C.) in assay buffer, was then used to initiate the reaction (final volume 200 μl).The plates were monitored over the length of the assay (60 minutes) for change in absorbance at the appropriate wavelength (340 nm for 3-Np and HMC, 370 nm for PAP, and 400 nm for 4-Np) using a Spectromax Plus microtiter plate reader equipped with a monochrometer (acceptable results can be obtained with plate readers that utilize cutoff filters). Proteolytic cleavage of the ester linkage between the Nva and the chromophore was monitored at the appropriate wavelength against a no enzyme blank as a control for non-enzymatic hydrolysis. […] Initial velocities were determined using linear regression and kinetic constants were obtained by fitting the data to the Michaelis-Menten equation using non-linear regression analysis (Mac Curve Fit 1.1, K. Raner). […]

[2] = target: HCV serine protease (subtype 1b, 1bNS4A21-32GS-GS NS3-81 I17K) in HeLa/Huh7 cells (Hepatitis C virus genotype 1b, UniProt P26663, I1043K); experiment: HCV serine protease cell-based trans-cleavage assay (BFP-5A/5B-GFP reporter cleavage, Western blot)
Method: The cell bioassays for the HCV serine protease was performed on the inventive compounds by following the procedure described by S. Agrawal et al, “Development and Characterization of Hepatitis C Virus Serine Protease Cell-based Trans-Cleavage Assay”, Hepatology Supplement to Volume 30 (No. 4, Part 2, October 1999), Abstract No. 615 (Proceedings of AASLD 50th Annual Meeting, Dallas, Tex., Nov. 5-9, 1999), the disclosure of which is incorporated herein by reference. The assay was performed in HeLa/Huh7 cells that were co-transfected with a plasmid that expresses a reporter protein substrate containing the NS5A/5B cleavage recognition sequence and an 1BNS4A21-32 GS-GSNS3-81 I17K expression vector and YFPn1 as a internal standard protein to control cytotoxicity. Protease activity was measured by SDS-PAGE of total cell lysates followed by Western blot detection using a monoclonal antibody directed against the reporter substrate. Quantitation of substrate cleavage was performed by scanning the immunoblot on the phosphoimager.
The reporter gene that expresses the substrate encodes a fusion protein comprised of an N′ terminal blue fluorescent protein (BFP) domain and a C′ terminal green fluorescent protein (GFP) domain, separated by a 25 amino acids derived from the NS5A/5B cleavage recognition sequence. […]

Row | Compound | Ki [1] [nM] | Cell-Based Assay [2] [µM]
1 | CCC[C@H](NC(=O)[C@@H]1C[C@@H]2CN1C(=O)[C@H](C1CCCCC1)NC(=O)Cc1cccc(c1)OCCO2)C(=O)C(=O)NCC(=O)N[C@H](C(=O)N(C)C)c1ccccc1 | 1 to 100 | 7
2 | CCC[C@@H](NC(=O)[C@@H]1C[C@@H]2CN1C(=O)[C@H](C1CCCCC1)NC(=O)Cc1cccc(c1)OCCCO2)C(=O)C(=O)NCC(=O)N[C@H](C(=O)N(C)C)c1ccccc1 | 101 to 100000 | 
3 | CCC[C@H](NC(=O)[C@@H]1C[C@@H]2CN1C(=O)[C@H](C1CCCCC1)NC(=O)Cc1cccc(c1)OCCCO2)C(=O)C(=O)NCC(=O)N[C@H](C(=O)N(C)C)c1ccccc1 | 1 to 100 | 2
4 | CCCC[C@H](NC(=O)[C@@H]1C[C@@H]2CN1C(=O)[C@H](C(C)(C)C)NC(=O)Cc1ccccc1OCCCCO2)C(=O)C(=O)NCC(=O)N[C@H](C(=O)N(C)C)c1ccccc1 | 101 to 100000 | 
